Construct, isoform or probe ends are uncertain for at least one entry. Results from cells or extracts need not show a direct contact.
Tested on: HNF3 (hepatocyte nuclear factor 3)
Assay: EMSA
Conditions: wild type oligomer; GL046732 had no effect; exact oligo not given, core site given; protein in an extract

“GACTGTTTGTTT (double strand) [HBV core proximal HNF3 wild-type site]”: binds.

From US7189506B1, “DNA binding compound-mediated molecular switch system” (Genelabs Technologies, Inc.)
